# Experiment: Cysteic acid generation by ATR-FTIR analysis of perm hair
# Details: perm hair washed once
smiles,measurement,value
OO [hydrogen peroxide],"Peak height of 1040 cm^-1 (cysteic acid), normalized to amide III 1242 cm^-1",0.8867
